A mixed list of measured activities; the numbers were collected in NIAID ChemDB.

All rows: whole-cell or culture tests; agent: Candida albicans; measure: EC50

Blank or dashed fields: not listed here.

smiles | cell line | method | strain or isolate | conditions | result
C/C=C/C(=O)O[C@@H]1[C@@H](C)COC(=O)C2OC2=CC[C@@H]1O | - | absorbance | - | - | 2 µg/mL
COc1ccc2[nH]c3c(C)c(C)c(OC)c(O)c3c2c1 | - | resazurin | - | - | >50 µg/mL
COc1cc(CCCOC(=O)c2ccccc2)ccc1O | - | - | - | - | 7.05 µg/mL
C[n+]1cccc(N(CCCCCC2CCCCC2)c2cccc(C#N)c2)c1.[I-] | - | resazurin | ATCC 90028 | - | >20 µg/mL
C[n+]1c2cccc(Cl)c2cc2sc3ccccc3c21 | - | resazurin | ATCC 90028 | - | >20 µg/mL
C[C@@H]1C[C@@H](O)[C@H]2C3=C(C[C@H](O)[C@@]2(O)C1)C(=O)c1c(O)cccc1C3=O | - | resazurin | - | - | 46.2 µM
CCCCCCCCCCCC(=O)c1c(O)cc(O)c([C@@H]2C[C@H](c3ccc(O)cc3)Oc3cc(O)ccc32)c1O.CCCCCCCCCCCC(=O)c1c(O)cc(O)c([C@@H]2C[C@H](c3ccc(O)cc3)Oc3cc(O)ccc32)c1O | VERO | colony count | - | - | 6 µg/mL
CC(=O)O[C@H]1C[C@@]2(C)[C@@H](C[C@@H](O)[C@H]3[C@@]4(C)CC[C@@H](O)[C@@H](C)[C@@H]4CC[C@@]32C)/C1=C(\CCC=C(C)C)C(=O)O | - | agar diffusion / agar | - | - | >100 µg/mL
C=C(CN1CCOCC1)C(=O)c1ccc(Cl)cc1 | - | - | - | - | 9.18 µM
C[n+]1cccc(Nc2ccccc2)c1.[I-] | - | resazurin | ATCC 90028 | - | >20 µg/mL
COc1ccc2sc3cc4ccccc4[n+](C)c3c2c1 | - | resazurin | ATCC 90028 | - | >20 µg/mL
COc1c(C)c(C)c2[nH]c3ccc(Cc4c(C)c(OC)c(O)c5c4[nH]c4ccccc45)cc3c2c1O | - | resazurin | - | - | >50 µg/mL
C[C@H]1[C@H](O)[C@@H](C)/C=C/C=C/C=C/C=C/C=C/C=C/C=C/[C@H](O[C@@H]2O[C@H](C)[C@@H](O)[C@H](N)[C@@H]2O)C[C@@H]2O[C@](O)(C[C@@H](O)C[C@@H](O)CC[C@H](O)[C@@H](O)C[C@@H](O)CC(=O)O[C@H]1C)C[C@H](O)[C@H]2C(=O)O | - | broth dilution | 20 | - | 1 µM
O=C(O)C(Cc1ccccc1)N1C(=O)CSC1c1c(Cl)cccc1Cl | - | broth dilution | - | - | 22.01 µM
S=C(S)n1nnc2ccccc21 | - | broth dilution / absorbance | clinical isolate CDRI | 48 h | >50 µg/mL
C=C(CN1CCOCC1)C(=O)c1ccccc1 | - | - | - | - | 1.94 µM
O=C(CCCCCCCCc1ccccc1)c1c(O)cc(O)c([C@@H]2C[C@@H](c3ccc(O)cc3)Oc3cc(O)ccc32)c1O | VERO | colony count | - | - | >20 µg/mL
C=C(CN1CCN(C)CC1)C(=O)c1ccc(Cl)cc1 | - | - | - | - | 1.48 µM
COc1ccc2[nH]c3c(C)c(C)c(OC)c(OC)c3c2c1 | - | resazurin | - | - | >50 µg/mL

For reference, 2 entries again:

smiles	cell line	method	strain or isolate	conditions	result
C[C@H]1[C@H](O)[C@@H](C)/C=C/C=C/C=C/C=C/C=C/C=C/C=C/[C@H](O[C@@H]2O[C@H](C)[C@@H](O)[C@H](N)[C@@H]2O)C[C@@H]2O[C@](O)(C[C@@H](O)C[C@@H](O)CC[C@H](O)[C@@H](O)C[C@@H](O)CC(=O)O[C@H]1C)C[C@H](O)[C@H]2C(=O)O	-	broth dilution	20	-	1 µM
COc1ccc2[nH]c3c(C)c(C)c(OC)c(O)c3c2c1	-	resazurin	-	-	>50 µg/mL

ECn is the concentration giving n% inhibition of infection, replication or growth. Neighbouring rows are from separate reports.